Assay results as given in patent US4954637A, “Certain maleimide-N-alkylenecarboxylate-ortho-nitrobenzenesulfonic acid esters and derivatives useful for coupling biological materials” (Cetus Corporation, priority 1987, dated 1990).

Tested on: streptavidin
Parameters: species or system Streptomyces avidinii
Settings: 20 minutes
Experimental: A total of 0.26 mg (4.3×10^-3 μmoles) of streptavidin purified from Streptomyces avidinii by the method of Hoffman et al., PNAS. 77, 4666-4668 (1980) was dissolved in 1.0 ml of phosphate buffered saline at pH 7.4 to yield a total amine concentration of 6.93×10^-5 M (16NH2 /streptavidin). […] Good separation was achieved between the protein and the excess HNSA and unreacted HNSA ester. […] In this case 79% of the amino groups on streptavidin (12.9 out of 16.0) reacted.

Compound: O=C(CCCCCN1C(=O)C=CC1=O)Oc1ccc(S(=O)(=O)O)cc1[N+](=O)[O-] [mal-sac-HNSA, N-maleimido-6-aminocaproylHNSA]
- amino groups on streptavidin reacted (out of 16.0): 12.9
- percent of the amino groups on streptavidin reacted: 79%
